# From PubChem BioAssay AID602399 (Sanford-Burnham Center for Chemical Genomics, 2012)
# This is a selection; strong and weak results do not stand in their true shares. Activity calls are given as the source filed them. Rule as the data show it: active = inhibition above about 26%; inactive = the rest.
# Test system: Nicotinate-nucleotide adenylyltransferase NadD (Staphylococcus aureus N315)
# Assay: S. aureus NadD enzyme activity blockers – biochemical, colorimetric, uHTS, primary screen (AID 602399)
# Conditions: purified NadD enzyme, colorimetric absorbance read-out; at 20 µM; active compounds read high
row,SMILES,inhibition
1,CN(C)C1(CNC(=O)c2cccc(C#N)c2)CCCCC1,inactive: -2.95%
2,c1ccc(CN2CCC(Nc3ccccc3)CC2)cc1,inactive: 2.21%
3,Cc1cc(N(CCCl)CCCl)ccc1C=O,inactive: -1.73%
4,O=c1[nH]c2ccccc2n1C1CCN(C(c2ccccc2)c2nnnn2C2CCCC2)CC1 (centres undefined),inactive: 4.06%
5,CCCN1CCC(Nc2cc(OC)cc(OC)c2)CC1,inactive: -1.38%
6,CC(C)(C)n1nnnc1C(c1cccc2ccccc12)N1CCC(n2c(=O)[nH]c3ccccc32)CC1 (centres undefined),inactive: 10.2%
7,N#Cc1ccc(C(=O)NCC2(N3CCCCC3)CCCCC2)cc1,inactive: -2.44%
8,CC(C)(C)OC(=O)N1CCC(N(C(=O)c2ccccc2)c2ccc(Cl)cc2)CC1,inactive: -4.85%
9,COc1cccc(C(c2nnnn2C(C)(C)C)N2CCC(n3c(=O)[nH]c4ccccc43)CC2)c1OC (centres undefined),inactive: 4.53%
10,CCOC(=O)N1CCC(Nc2ccc(C)cc2)CC1,inactive: -8.63%
11,N/C(=N\O)c1c(N)no[n+]1[O-],inactive: -3.88%
12,O=C(OC1CN2CCC1CC2)C1c2ccccc2C=Cc2ccccc21 (centres undefined),inactive: -8.76%
13,O=c1[nH]c2ccccc2n1C1CCN(C(c2cccs2)c2nnnn2C2CCCC2)CC1 (centres undefined),inactive: 6.72%
14,CCCCn1nnnc1C(c1cccc(OC)c1OC)N1CCC(n2c(=O)[nH]c3ccccc32)CC1 (centres undefined),inactive: -1.78%
15,CCCCn1nnnc1C(c1ccccc1)N1CCC(n2c(=O)[nH]c3ccccc32)CC1 (centres undefined),inactive: -1.3%
16,COc1cc(C(=O)NCC2(N3CCOCC3)CCCCC2)cc(OC)c1C,inactive: -7.18%
17,O=C(NCC1(N2CCOCC2)CCCCC1)c1cc(Br)ccc1Cl,inactive: 1%
18,O=c1[nH]c2ccccc2n1C1CCN(C(c2cccs2)c2nnnn2C2CCCCC2)CC1 (centres undefined),inactive: 9.69%
19,COc1ccc(C(=O)NCC2(N3CCOCC3)CCCCC2)cc1OC,inactive: 3.02%
20,O=c1[nH]c2ccccc2n1C1CCN(C(c2ccnc3ccccc23)c2nnnn2C2CCCC2)CC1 (centres undefined),inactive: 14.4%
21,COc1cccc(C(=O)N(c2cc(C)cc(C)c2)C2CCN(C(=O)OC(C)(C)C)CC2)c1,inactive: -0.328%
22,COc1cccc(C(c2nnnn2C2CCCC2)N2CCC(n3c(=O)[nH]c4ccccc43)CC2)c1OC (centres undefined),inactive: 6.41%
23,COc1cc(OC)cc(C(=O)NCC2(N3CCOCC3)CCCCC2)c1,inactive: -2.26%
24,CCC(CO)(C(=O)OC1CN2CCC1CC2)c1ccccc1 (centres undefined),inactive: -7.63%
25,CN1CCC(Nc2ccc(Cl)cc2)CC1,inactive: 0.887%
26,CCOc1ncccc1C(=O)NCC1(N2CCOCC2)CCCCC1,inactive: 4.05%
27,CN1CCC(Nc2ccc(F)c(Cl)c2)CC1,inactive: -6.79%

row,SMILES,inhibition
1,CC(C)(C)OC(=O)N1CCC(Nc2ccccc2)CC1,inactive: 3.95%
2,NN(c1ccccc1)C1CCN(CCc2ccccc2)CC1,inactive: 2.33%
3,O=C(O)C1(Nc2ccccc2)CCN(Cc2ccccc2)CC1,inactive: -8.55%
4,CCCOc1ccc(C(=O)NCC2(N(C)C)CCCCC2)cc1,inactive: -3.82%
5,O=c1[nH]c2ccccc2n1C1CCN(C(c2cc3ccccc3o2)c2nnnn2C2CCCC2)CC1 (centres undefined),inactive: 20.3%
6,Cc1ccccc1NC1(C#N)CCN(Cc2ccccc2)CC1,inactive: -2.27%
7,CC(C)(C)n1nnnc1C(c1ccnc2ccccc12)N1CCC(n2c(=O)[nH]c3ccccc32)CC1 (centres undefined),inactive: 4.07%
8,CCN1CCC(Nc2cccc(F)c2)CC1,inactive: 1.35%
9,COc1ccc(C(c2nnnn2C2CCCCC2)N2CCC(n3c(=O)[nH]c4ccccc43)CC2)cc1 (centres undefined),inactive: 6.49%
10,O=C(NCC1(N2CCCCC2)CCCCC1)c1ccco1,inactive: -4.19%
11,Cn1c(=O)[nH]cc(N(CCCl)CCCl)c1=O,inactive: 1.33%
12,CN(C)c1ccc(C(=O)NCC2(N3CCCCC3)CCCCC2)cc1,inactive: -6.2%
13,CC(=O)N(c1ccccc1)C1CCNCC1,inactive: -1.75%
14,COc1cccc(C(c2nnnn2C2CCCCC2)N2CCC(n3c(=O)[nH]c4ccccc43)CC2)c1OC (centres undefined),inactive: 9.53%
15,CCC(c1nnnn1C1CCCCC1)N1CCC(n2c(=O)[nH]c3ccccc32)CC1 (centres undefined),inactive: -2.81%
16,O=c1[nH]c2ccccc2n1C1CCN(C(c2ccnc3ccccc23)c2nnnn2C2CCCCC2)CC1 (centres undefined),inactive: 6.97%
17,COc1cc(OC)cc(C(=O)NCC2(N3CCCCC3)CCCCC2)c1,inactive: -0.448%
18,Cc1ccc(C(=O)NCC2(N3CCCCC3)CCCCC2)o1,inactive: -1.66%
19,Fc1ccccc1NC1CCN(Cc2ccccc2)CC1,inactive: 1.87%
20,Cc1ccc(NC2(C#N)CCN(Cc3ccccc3)CC2)cc1,inactive: -0.156%
21,O=c1[nH]c2ccccc2n1C1CCN(C(c2ccccc2)c2nnnn2C2CCCCC2)CC1 (centres undefined),inactive: 9.84%
22,COc1cc(C(=O)NCC2(N(C)C)CCCCC2)ccc1OC(F)F,inactive: -2.16%
23,CCOC(=O)N1CCC(Nc2cccc(C)c2)CC1,inactive: -1.57%
24,O=c1[nH]c2ccccc2n1C1CCN(C(c2cccc3ccccc23)c2nnnn2C2CCCC2)CC1 (centres undefined),active: 35%
25,CC(C)(C)n1nnnc1C(c1ccccc1)N1CCC(n2c(=O)[nH]c3ccccc32)CC1 (centres undefined),inactive: 3.24%
26,O=C1CCN(Cc2ccccc2)CC1,inactive: 3.17%
27,CCOc1ccc(C)cc1CN(CCCl)CCCl,inactive: 2.47%
